A mixed list of measured activities; the numbers were collected in NIAID ChemDB.

Shared fields: whole-cell or culture tests; organism: Rhinovirus; measure: EC50

ECn is the concentration giving n% inhibition of infection, replication or growth. Lines come from different laboratories, so protocols vary.

SMILES,strain,cells,read by,value
CN(C)c1nc(C(F)(F)F)nc2c1ncn2Cc1ccc(Br)cc1,Serotype 19,M-HELA,plaque count,>8 µM
CSc1nsc(-c2ccc(OCCCCOc3ccc(C#N)cc3)cc2)c1C#N,Serotype 29 (group B),HELA-OHIO,cytopathic effect,>2 µM
Cc1cc(CCCCCOc2c(Cl)cc(C3=NCCO3)cc2Cl)on1,TYPE 54,HeLa,plaque count,0.65 µg/mL
CN(C)c1nc(C(F)(F)F)nc2c1ncn2Cc1ccccc1,Serotype 3,M-HELA,plaque count,>8 µM
CSc1nsc(-c2ccc(OCCc3ccccc3)cc2)c1C#N,Serotype 41 (group B),HELA-OHIO,cytopathic effect,>20 µM
CN(C)c1nc(C(F)(F)F)nc2c1ncn2Cc1cccc(F)c1,Serotype 5,M-HELA,plaque count,>8 µM
CCn1c2c(c(=O)c3cc(C(C)C)ccc31)Cc1ccccc1-2,TYPE 1B/B632,HELA-OHIO,cytopathic effect,0.3 µg/mL
Cc1ccc(Cn2cnc3c(N(C)C)nc(C(F)(F)F)nc32)cc1,Serotype 3,M-HELA,plaque count,>2.5 µM
CSc1nsc(-c2ccccc2)c1C#N,Serotype 59 (group B),HELA-OHIO,cytopathic effect,>80 µM
CCOC(=O)c1ccc(OCCC2CCN(c3ccc(C)nn3)CC2)cc1,1-CV15 (ICAM-1 receptor group 11),KB,neutral red,0.271 µM
Cc1cc(CCCOc2c(C)cc(-c3noc(C(F)(F)F)n3)cc2C)on1,Isolate 36,OHIO HELA-I,cytopathic effect / visual reading,0.14 µg/mL
Cc1c(-c2ccccc2)n(-c2cccc(F)c2)c2ccc(C(C)C)cc2c1=O,3 (FEB),HELA-OHIO,cytopathic effect,>1 µg/mL
Cc1ccccc1Cn1cnc2c(N(C)C)nc(C(F)(F)F)nc21,Serotype 21,M-HELA,plaque count,>8 µM
CSc1nsc(-c2ccc(OCCCCOc3ccc([N+](=O)[O-])cc3)cc2)c1C#N,Serotype 85 (group B),HELA-OHIO,cytopathic effect,>0.5 µM
CSc1nsc(-c2ccc(OCc3ccccc3)cc2)c1C#N,Serotype 59 (group B),HELA-OHIO,cytopathic effect,12 µM
CSc1nsc(-c2ccc(OCCOc3ccc([N+](=O)[O-])cc3)cc2)c1C#N,Serotype 41 (group B),HELA-OHIO,cytopathic effect,>2 µM
Fc1cccc(Cn2cnc3c(Nc4cccc(F)c4)nc(C(F)(F)F)nc32)c1,Serotype 26,M-HELA,plaque count,3 µM
Cc1c(-c2ccccc2)n(-c2ccc(F)cc2)c2ccc(C(C)C)cc2c1=O,50/A2#58,HELA-OHIO,cytopathic effect,0.038 µg/mL
Cc1cc(Cn2cnc3c(N(C)C)nc(C(F)(F)F)nc32)ccc1Cl,Serotype 30,M-HELA,plaque count,>8 µM
CCOC(=O)c1ccc(OCCCCOc2ccc(-c3snc(SC)c3C#N)cc2)cc1,Serotype 89 (group B),HELA-OHIO,cytopathic effect,>2 µM
Cc1ccc(Cn2cnc3c(N(C)c4ccccc4)nc(C(F)(F)F)nc32)cc1,Serotype 2,M-HELA,plaque count,2.7 µM
CSc1nsc(-c2ccc(OCCOc3ccccc3)cc2)c1C#N,Serotype 86 (group A),HELA-OHIO,cytopathic effect,0.3 µM
COc1ccc(-c2snc(SC)c2C#N)cc1,Serotype 39 (group B),HELA-OHIO,cytopathic effect,>12 µM
CN(C)c1nc(C(F)(F)F)nc2c1ncn2Cc1ccc([N+](=O)[O-])cc1,Serotype 13,M-HELA,plaque count,>8 µM
CSc1nsc(-c2ccc(OCc3ccccc3)cc2)c1C#N,Serotype 72 (group A),HELA-OHIO,cytopathic effect,>50 µM

Repeating the final 2 entries:

SMILES | strain | cells | read by | value
CN(C)c1nc(C(F)(F)F)nc2c1ncn2Cc1ccc([N+](=O)[O-])cc1 | Serotype 13 | M-HELA | plaque count | >8 µM
CSc1nsc(-c2ccc(OCc3ccccc3)cc2)c1C#N | Serotype 72 (group A) | HELA-OHIO | cytopathic effect | >50 µM